Pooled drug test results. Numbers come from NIAID ChemDB, via PubChem.

All rows: growth or infection tests; species: HIV-1; cell line: MT-2; read-out: EC50

Conditions beyond the fields shown may differ between rows.

smiles	strain	mutations	read by	result
Nc1nc2c(ncn2[C@H]2C=C[C@@H](CO)C2)c(=O)[nH]1	IIIB	-	cytopathic effect / MTT	1.1 µM
Cc1ccnc2c1NC(=O)c1cccnc1N2C1CC1	N119 nevirapine-resistant (RT Y181C)	RT-Y181C	cytopathic effect / MTT	>100 µM
CCN(c1nc(F)ccc1NC(C)(C)C)C1CCN(C(=O)c2cc3cc(NC(=O)N4CCN(C)CC4)ccc3[nH]2)CC1	IIIB	R41K	p24 / ELISA	0.0261 µM
CC(C)=CCN1Cc2cccc3[nH]c(=S)n(c23)C[C@@H]1C	N119 nevirapine-resistant (RT Y181C)	RT-Y181C	cytopathic effect / MTT	69.3 µM
Cc1ccnc2c1NC(=O)c1cccnc1N2C1CC1	LAI	-	cytopathic effect / MTT	0.2 µM
Cn1c2ccccc2c2c1cc(C#N)c(=O)n2-c1ccc([N+](=O)[O-])cc1	HXB2	TAM1 (M41L D67N L210W T215Y)	-	110.9 µM
COc1cc(/C=C/C(=O)[Se]c2ccccc2)ccc1O	LAI	-	MTT	3.3 µM
Nc1n[nH]c2ccc(CN3C(=O)N(Cc4ccc5ccccc5c4)[C@H](Cc4ccccc4)[C@H](O)[C@@H](O)[C@H]3Cc3ccccc3)cc12	RF	-	-	<0.023 µM
Cc1cn([C@H]2C[C@H](N=[N+]=[N-])[C@@H](CO)O2)c(=O)[nH]c1=O	IIIB	-	MTT	0.024 µM
Nc1nc(NC2CC2)c2ncn([C@H]3C=C[C@@H](CO)C3)c2n1	IIIB	-	cytopathic effect / MTT	2.5 µM
O=C1N(Cc2ccc(F)cc2)[C@H](Cc2ccccc2)[C@H](O)[C@@H](O)[C@@H](Cc2ccccc2)N1Cc1ccc(F)cc1	RF	-	hybridisation	<0.6 µM
O=c1[nH]cnc2c1ncn2[C@H]1CC[C@@H](CO)O1	-	-	-	0.72 µM
Nc1ncnc2c1ncn2CCOCP(=O)(O)O	HXB2D	-	XTT	10 µM
Nc1cccc(CN2C(=O)N(Cc3ccc4ccccc4c3)[C@H](Cc3ccccc3)[C@H](O)[C@@H](O)[C@H]2Cc2ccccc2)c1	RF	-	hybridisation	<0.084 µM
CC(C)(C)OC(=O)N[C@@H](Cc1ccccc1)[C@H](O)CNC[C@@H](O)[C@H](Cc1ccc(OCC(=O)N2CCOCC2)cc1)NC(=O)OC(C)(C)C	NL4-3	PR-A71T	p24	0.04 µM
CCNc1n[nH]c2ccc(CN3C(=O)N(Cc4ccc5[nH]nc(NCC)c5c4)[C@H](Cc4ccccc4)[C@H](O)[C@@H](O)[C@H]3Cc3ccccc3)cc12	RF	-	-	<0.065 µM
Nc1nc2c(ncn2[C@H]2CO[C@@H](CO)O2)c(=O)[nH]1	Site-directed mutant	RT-Q151M	cytopathic effect / XTT	21.1 µM
C[C@H](Cn1cnc2c(N)ncnc21)OCP(=O)(O)O	P18 FDDA-resistant RT P119S V179D L214F	RT-P119S V179D L214F	p24	1.2 µM
CC(C)CN(C[C@@H](O)[C@H](Cc1ccccc1)NC(=O)O[C@H]1CCOC1)S(=O)(=O)c1ccc(N)cc1	LAI	-	MTT	0.033 µM
Nc1ccn([C@H]2CC[C@@H](CO)O2)c(=O)n1	A-17 (TIBO-RS)	-	cytopathic effect / MTT	~0.07 µM
CC(C)(C)NC(=O)[C@@H]1C[C@@H]2CCCC[C@@H]2CN1C[C@@H](O)[C@H](Cc1ccccc1)NC(=O)[C@H](CC(N)=O)NC(=O)c1ccc2ccccc2n1	LAI	-	MTT	0.026 µM
O=C1N(Cc2ccc3[nH]ncc3c2)[C@H](Cc2ccccc2)[C@H](O)[C@@H](O)[C@@H](Cc2ccccc2)N1Cc1ccc2[nH]ncc2c1	RF	-	-	<0.008 µM
Nc1nc(NC2CC2)c2ncn([C@H]3C=C[C@@H](CO)C3)c2n1	NL4-3 Recombinant	-	cytopathic effect / XTT	2.4 µM
CCCc1c([Se]c2ccccc2)n(COCc2ccccc2)c(=O)[nH]c1=O	Cat #3 strain	-	p24	0.025 µM
COc1ccc(S(=O)(=O)N(CC(C)C)C[C@@H](O)[C@H](Cc2ccccc2)NC(=O)O[C@H]2CO[C@@H]3O[C@H]4OCC[C@H]4[C@@H]32)cc1	LAI	-	MTT	0.33 µM
O=c1ccc2ccccc2[se]1	LAI	-	MTT	>100 µM
Cc1cn([C@H]2C[C@H](N=[N+]=[N-])[C@@H](CO)O2)c(=O)[nH]c1=O	A17	RT-K103N Y181C	RT activity	0.03 µM
O=C(O)P(=O)(O)O	LAI viral clone (RT-E89G)	RT-E89G	cytopathic effect / MTT	399 µM
Nc1nc(NC2CC2)c2ncn([C@H]3C=C[C@@H](CO)C3)c2n1	Site-directed mutant	RT-K65R	cytopathic effect / XTT	1.25 µM
Cc1cn([C@H]2C[C@H](N=[N+]=[N-])[C@@H](CO)O2)c(=O)[nH]c1=O	IIIB	-	cytopathic effect / MTT	0.036 µM
Nc1nc2c(ncn2[C@H]2CO[C@@H](CO)O2)c(=O)[nH]1	-	-	-	0.105 µM
Nc1ccn([C@H]2CC[C@@H](CO)O2)c(=O)n1	IIIB	-	cytopathic effect / MTT	0.27 µM
Cc1cn([C@H]2C[C@H](N=[N+]=[N-])[C@@H](CO)O2)c(=O)[nH]c1=O	Site-directed mutant	RT-K65R Q151M	cytopathic effect / XTT	8.9 µM
Nc1ncnc2c1ncn2[C@H]1C=C[C@@H](OCP(=O)(O)O)O1	HXB2D	-	XTT	3.6 µM
Nc1cccc(CN2C(=O)N(Cc3cccc(N)c3)[C@H](Cc3ccccc3)[C@H](O)[C@@H](O)[C@H]2Cc2ccccc2)c1	THAI (PR-WT)	-	virus yield	<0.13 µM
CC[C@H](C)[C@H](NC(=O)Cc1ccccn1)C(=O)N[C@@H](Cc1ccccc1)[C@@H](O)[C@H](O)[C@H](Cc1ccccc1)NC(=O)[C@@H](NC(=O)Cc1ccccn1)[C@@H](C)CC	Clinical isolate E	-	plaque count / virus yield	<0.95 µg/mL
COC(=O)N[C@H](C(=O)N[C@@H](Cc1ccccc1)[C@@H](O)CN(Cc1ccc(-c2ccccn2)cc1)NC(=O)[C@@H](NC(=O)OC)C(C)(C)C)C(C)(C)C	IIIB	I401T	p24 / ELISA	0.0009 µM
Nc1nc(=O)n([C@@H]2CS[C@H](CO)O2)cc1F	Site-directed mutant	RT-K65R H221Y	cytopathic effect / XTT	10.5 µM
Nc1nc(=O)n([C@@H]2C=C[C@H](CO)O2)cc1F	IIIB	-	cytopathic effect / MTT	0.5 µM
CCOP(=O)(COc1ccc(C[C@H](NC(=O)O[C@H]2CO[C@H]3OCC[C@H]32)[C@H](O)CN(CC(C)C)S(=O)(=O)c2ccc(OC)cc2)cc1)OCC	IIIB	PLV-P31 LVP-resistant mutant	ATP	0.0048 µM
O=C(/C=C/c1ccc(O)c(O)c1)[Se]c1ccccc1	LAI	-	MTT	7.3 µM
CC(C)(C)OC(=O)N[C@@H](Cc1ccccc1)[C@H](O)CNC[C@@H](O)[C@H](Cc1ccccc1)NC(=O)OC(C)(C)C	RF	-	p24	0.06 µM
COc1c(O)c(Cl)c2c(c1OC)-c1c(c(Cl)c(O)c(OC)c1OC)C[C@H](C)[C@H](C)C2	N119 nevirapine-resistant (RT Y181C)	RT-Y181C	cytopathic effect / MTT	>20 µM
O=C1N(Cc2cccc(Cl)c2)[C@H](Cc2ccccc2)[C@H](O)[C@@H](O)[C@@H](Cc2ccccc2)N1Cc1cccc(Cl)c1	RF	-	hybridisation	<1.3 µM
O=C1CCc2ccccc2[Se]1	LAI	-	MTT	>100 µM
Cc1cc(C)cc([C@]23SCCN2C(=O)c2ccccc23)c1	IIIB	-	MTT	0.055 µM
O=C1N(Cc2cccc(O)c2)[C@H](Cc2ccccc2)[C@H](O)[C@@H](O)[C@@H](Cc2ccccc2)N1Cc1ccc2ccccc2c1	RF	-	hybridisation	<0.145 µM
CCCc1cc(=O)oc2c3c(c4c(c12)OC(C)(C)C=C4)O[C@@H](C)[C@H](C)[C@H]3O	G910-6 AZT-resistant	-	cytopathic effect / MTT	>25 µM
COC(=O)N[C@H](C(=O)N[C@@H](Cc1ccccc1)[C@@H](O)CN(Cc1ccc(-c2ccccn2)cc1)NC(=O)[C@@H](NC(=O)OC)C(C)(C)C)C(C)(C)C	RF	-	RT activity	0.00572 µM
O=C1N(Cc2ccncc2)[C@H](Cc2ccccc2)[C@H](O)[C@@H](O)[C@@H](Cc2ccccc2)N1Cc1ccncc1	RF	-	hybridisation	<98 µM

The last 3 rows once more:

smiles,strain,mutations,read by,result
CCCc1cc(=O)oc2c3c(c4c(c12)OC(C)(C)C=C4)O[C@@H](C)[C@H](C)[C@H]3O,G910-6 AZT-resistant,-,cytopathic effect / MTT,>25 µM
COC(=O)N[C@H](C(=O)N[C@@H](Cc1ccccc1)[C@@H](O)CN(Cc1ccc(-c2ccccn2)cc1)NC(=O)[C@@H](NC(=O)OC)C(C)(C)C)C(C)(C)C,RF,-,RT activity,0.00572 µM
O=C1N(Cc2ccncc2)[C@H](Cc2ccccc2)[C@H](O)[C@@H](O)[C@@H](Cc2ccccc2)N1Cc1ccncc1,RF,-,hybridisation,<98 µM

ECn: concentration that inhibits the pathogen or its effect by n%. An empty or dashed field is not shown.